Compound potency records, mixed from different reports. Data source: NIAID ChemDB in PubChem.

Common to all: whole-cell or culture tests; organism: Mycobacterium tuberculosis

Inhibition is in % at the dose shown (toxicity tests: loss of growth or viability). Blank or dashed fields: not listed here. MIC50, MIC90 and the like: level of inhibition, or share of isolates inhibited. For "inactive" no cut-off is given. MIC bound: limit read from a one-dose screen. a–b is a range or a potency band. ECn: concentration that inhibits the pathogen or its effect by n%. Rows are shuffled and stem from different studies.

SMILES	cells	strain	dose	measure	method	value
CC(=O)C1=C(O)c2c(C)cc(C)nc2S(=O)(=O)N1	-	H37Rv	-	MIC	-	>12.5 µg/mL
O=C(Cn1nnc(N2CCCCC2)n1)N/N=C/c1ccccc1O	-	H37Rv	12.5 µg/mL	inhibition	BACTEC	-5%
O=C(Nc1cccc(F)c1)c1ccccc1O	-	My 331/88	-	MIC	-	31 µM
CC1=N/C(=C/c2ccc([N+](=O)[O-])cc2)C(=O)N1n1c(-c2ccccc2)nc2ccccc2c1=O	-	H37Rv	12.5 µg/mL	inhibition	BACTEC	93%
NC(=O)c1cnccn1	-	TB186	-	MIC	-	3200 µg/mL
CC(C)(C)C1=NC(=S)SC2=NC(=O)C3(NN21)c1ccccc1-c1ccccc13	VERO	H37Rv	-	MIC	resazurin	3.13 µg/mL
CC(C)CCc1ccc(Oc2ccc(Cl)cc2Cl)c(O)c1	-	Clinical isolate 12081	-	MIC	-	240 µM
CCN(CC)P1(=O)OP(=O)(N(CC)CC)OP(=O)(N(CC)CC)O1	-	H37Rv	-	MIC	BACTEC	≥128 µg/mL
CC(=O)Nc1c(-c2ccccc2)c2cc(Cl)ccc2n(C)c1=O	-	H37Rv	-	EC50	-	>6.25 µg/mL
Cc1cc(C)c2c(n1)S(=O)(=O)N(CC(=O)c1ccccc1)C2=O	-	H37Rv	-	MIC	-	>12.5 µg/mL
Cc1cc2c(c(C)c1CCO)C(=O)[C@H](C)C2	-	H37Rv	-	MIC	agar	183.5 µM
CC(=O)c1ccc(N2CCN(C(=O)c3cccc(Cl)c3)CC2)cc1	-	BioA underexpression strain	-	MIC90	turbidity	2.3 µM
CC(=O)Nc1ccc(C(=O)CCC(=O)NC[C@H]2CN(c3ccc(-n4cncn4)c(F)c3)C(=O)O2)cc1	-	10 clinical isolates sensitive	-	MIC	-	2–4 µg/mL
CC(=O)c1ccc(N2CCN(C(=O)c3cncc(Cl)c3)CC2)cc1	-	BioA overexpression strain	-	MIC50	turbidity	>50 µM
COc1cc(Cc2nccc3cc(OC)c(OC)cc23)c(C(C)=O)cc1OC	-	H37Rv	-	MIC	BACTEC	≥12.8 µg/mL
Cc1cc(C)c2c(=O)n(CC(O)CN3CCc4ccccc4C3)sc2n1	-	H37Rv	-	MIC	-	>12.5 µg/mL
COC(=O)C1=C2\c3cc4c(cc3CCN2C(=O)c2ccc(OC)c(OC)c2/C(OC)=C\1)OCO4	-	H37Rv	12.5 µg/mL	inhibition	BACTEC	25%
Cc1ccc(NC(=O)c2ccccc2N)cc1C	-	My 331/88	-	MIC	-	>125 µM
N#Cc1cccc2oc3ccccc3c(=O)c12	-	H37Rv	4 µg/mL	inhibition	-	inactive
CO[C@H]1/C=C/O[C@@]2(C)Oc3c(C)c(O)c4c(O)c(c(N5CCN(Cc6c(C)cc(C)cc6C)CC5)c(O)c4c3C2=O)NC(=O)/C(C)=C\C=C\[C@H](C)[C@H](O)[C@@H](C)[C@@H](O)[C@@H](C)[C@H](OC(C)=O)[C@@H]1C	-	-	-	MIC	-	0.04 µg/mL
O=C(O)c1ccc2oc3ccccc3c(=O)c2c1	-	H37Rv	32 µg/mL	inhibition	-	inactive
CCCCCC(=O)NC1C(O)OC(CO)C(O)C1O	-	H37Rv	12.5 µg/mL	inhibition	BACTEC	6%
CC1=C2C3B(OCCOC3C=C1)O[C@@H]2CN	-	H37Rv	-	EC50	resazurin / fluorescence	0.2 µM
CC(=O)c1ccc(N2CCN(C(=O)c3cscn3)CC2)cc1	-	BioA overexpression strain	-	MIC50	turbidity	>50 µM
Nc1ccccc1C(=O)Nc1ccc(Cl)c(Cl)c1	-	My 331/88	-	MIC	-	62 µM
COC(=O)c1ccc(N2CCN(C(=O)c3cccc(Cl)c3)CC2)cc1	-	BioA underexpression strain	-	MIC50	turbidity	>50 µM
O=c1[nH]c2cc([N+](=O)[O-])ccc2c(O)c1N=Nc1ccc(Br)cc1	-	H37Rv	-	MIC	resazurin	<6.25 µg/mL
COC(=O)c1ccc(O)cc1	-	H37Rv	-	MIC	agar	>350 µM
Cc1c([N+](=O)[O-])cc2c(=O)c3ccccc3oc2c1C	-	H37Rv	8 µg/mL	inhibition	-	inactive
C=C1C(=O)N[C@@H](CC(C)C)C(=O)N[C@H](CC(C)C)C(=O)N[C@H](C(=O)O)[C@H](C)C(=O)N[C@H](CCCN=C(N)N)C(=O)N[C@@H](/C=C/C(C)=C/[C@H](C)[C@H](Cc2ccccc2)OC)[C@@H](C)C(=O)N[C@@H](C(=O)O)CCC(=O)N1C	-	H37Rv	-	MIC	resazurin	13.2 µM
Cc1c(Cl)cccc1N=Nc1c(O)c2ccc([N+](=O)[O-])cc2[nH]c1=O	-	H37Rv	6.25 µg/mL	inhibition	resazurin	98%
Cc1cc(C)c2c(=O)n(CC(O)CN3CCN(CCO)CC3)sc2n1	-	H37Rv	12.5 µg/mL	inhibition	-	15%
O=c1ccnc2c1ccc1[nH]cccc12	-	H37Rv	12.5 µg/mL	inhibition	BACTEC	8%
CC(=O)Nc1c(OC(C)=O)nc2ccc(Cl)cc2c1-c1ccccc1	-	H37Rv	6.25 µg/mL	inhibition	-	0%
O=C(CCC(=O)c1ccc2ccccc2c1)NC[C@H]1CN(c2ccc(-n3cncn3)c(F)c2)C(=O)O1	-	10 clinical isolates sensitive	-	MIC	-	2–4 µg/mL
Oc1cc(CC2CCCCC2)ccc1Oc1ccc(Cl)cc1Cl	-	Clinical isolate 12081	-	MIC	-	110 µM
CC(=O)c1ccc(N2CCN(C(=O)c3ccc(Cl)c(Cl)c3)CC2)cc1	-	BioA overexpression strain	-	MIC90	turbidity	>50 µM
COc1c2c(cc3c1C1Oc4c(ccc(O)c4CC=C(C)C)C1CO3)OC(C)(C)C=C2	-	PAS-R	-	MIC	-	12.5 µg/mL
COc1ccccc1NC(=O)C1=C(C)NC(C)=C(C(=O)Nc2ccccc2OC)C1c1ccc(Cl)cc1Cl	-	H37Rv	-	EC50	-	<2.5 µg/mL
O=c1[nH]c2ccccc2c(=O)n1-c1ccccc1	-	My 331/88	-	MIC	-	>500 µM
CC1CCc2c(c3c(=O)[nH]c(=O)[nH]c3oc2=O)C1	-	H37Rv	-	MIC	BACTEC	≥12.5 µg/mL
NC(=O)c1ccc2oc3ccccc3c(=O)c2c1	-	H37Rv	4 µg/mL	inhibition	-	inactive
O=C(Nc1ccc(Cl)c(Cl)c1)c1ccccc1O	-	My 331/88	-	MIC	-	8 µM
NNC(=O)c1ccncc1	-	38 strains	-	MIC90	-	25 µg/mL
Cc1cc2nc3c(=O)[nH]c(=O)nc-3n(CC(O)C(O)C(O)COB(O)O)c2cc1C	-	H37Rv	-	MIC bound	BACTEC	>6.25 µg/mL
CO[C@H]1/C=C/O[C@@]2(C)Oc3c(C)c(O)c4c(O)c(c(/C=N/N5CCN(C)CC5)c(O)c4c3C2=O)NC(=O)/C(C)=C\C=C\[C@H](C)[C@H](O)[C@@H](C)[C@@H](O)[C@@H](C)[C@H](OC(C)=O)[C@@H]1C	-	38 strains	-	MIC50	-	0.1 µg/mL
CC1=C2C(=CO[C@H](C)[C@H]2C)C(=O)C(C(=O)O)=C1O	-	49	10 µg/mL	inhibition	-	40%
COC(=O)c1cccc2c(=O)c3ccccc3oc12	-	H37Rv	16 µg/mL	inhibition	-	inactive
CC1=C(C(=O)Nc2ccc(C)cc2C)C(c2ccccc2)C(C(=O)Nc2ccc(C)cc2C)=C(C)N1	-	H37Rv	2.5 µg/mL	inhibition	-	12%
Cc1ccc(NC(=O)CC/C(CC(=O)C(C)(C)C)=N\NC(=O)C[n+]2ccccc2)cc1C.[Cl-]	-	H37Rv	12.5 µg/mL	inhibition	BACTEC	21%
CCC(=O)N1CCN(c2ccc(C(C)=O)cc2)CC1	-	Wild type without biotin	-	MIC50	turbidity	>50 µM
Cc1cc(C)c2c(=O)n(CC(O)CN3CCCCC3)sc2n1	-	H37Rv	-	MIC	-	>12.5 µg/mL
O=c1oc2ccccc2c(=O)n1-c1ccc(Cl)cc1	-	My 331/88	-	MIC	-	31 µM
Nc1ccc2oc3ccc(C(=O)O)cc3c(=O)c2c1	-	H37Rv	16 µg/mL	inhibition	-	inactive
CC1=C(C(=O)Nc2ccc(Cl)cc2)C(c2ccc(O)cc2)C(C(=O)Nc2ccc(Cl)cc2)=C(C)N1	-	H37Rv	-	EC50	-	<2.5 µg/mL
CO[C@H]1/C=C/O[C@@]2(C)Oc3c(C)c(O)c4c(O)c(c5c(c4c3C2=O)NC2(CCN(CC(C)C)CC2)N=5)=NC(=O)/C(C)=C\C=C\[C@H](C)[C@H](O)[C@@H](C)[C@@H](O)[C@@H](C)[C@H](OC(C)=O)[C@@H]1C	-	-	-	MIC	-	0.04 µg/mL
O=c1oc2ccccc2c(=O)n1-c1ccc([N+](=O)[O-])cc1	-	My 331/88	-	MIC	-	16 µM
CN(C)CCCc1cccc2c1oc1ccccc12	-	H37Rv	12.5 µg/mL	inhibition	BACTEC	37%
CC1=C(C)C(=O)C(CC[C@](C)(O)CCC[C@H](C)CCC[C@H](C)CCCC(C)C)=C(C)C1=O	-	H37Rv	-	MIC	agar	56.1 µM
CO[C@@]12[C@H](COC(N)=O)C3=C(C(=O)C(C)=C(N)C3=O)N1C[C@H]1[C@@H]2N1C(=O)/C=C/c1ccccc1	-	H37Rv	12.5 µg/mL	inhibition	BACTEC	99%
CC1=C(C(=O)Nc2ccc([N+](=O)[O-])cc2)C(c2ccccc2Cl)C(C(=O)Nc2ccc([N+](=O)[O-])cc2)=C(C)N1	-	H37Rv	-	EC50	-	<2.5 µg/mL
CCC1CN2CCc3cc(OC)c(OC)cc3C2C(C2(O)C(=O)Nc3ccccc32)C1=O	-	H37Rv	-	MIC	BACTEC	≥12.5 µg/mL
O=c1oc2ccc3ccccc3c2c(O)c1N=Nc1ccc(Cl)cc1	-	H37Rv	-	MIC	resazurin	<6.25 µg/mL
Cc1ccc(NC(=O)c2ccccc2N)cc1	-	My 331/88	-	MIC	-	250 µM
COc1ccc2cc3[n+](cc2c1O)CCc1cc2c(cc1-3)OCO2	-	H37Rv	-	MIC	BACTEC	≥12.5 µg/mL
O=C(O)c1cnccn1	-	W478	-	MIC	-	240 µg/mL
CC(=O)N(C(C)=O)n1c(Cc2ccc(Cl)cc2)nn(C(C)=O)c1=O	-	H37Rv	12.5 µg/mL	inhibition	BACTEC	1%
Cn1nnnc1-c1ccc(N2CCN(C(=O)c3cccc(Cl)c3)CC2)cc1	-	BioA overexpression strain	-	MIC50	turbidity	>50 µM
CC(=O)C[C@H]1C[C@H]2[C@H]([C@@H]3c4[nH]c5ccccc5c4CCN13)[C@H](O)C13CC/C=C\CCCCN1CC21CC/C=C\CCCNC13	-	H37Rv	-	MIC	-	1.9 µg/mL
O=C(CCC(=O)c1ccc(Cl)cc1)NC[C@H]1CN(c2ccc(-n3cncn3)c(F)c2)C(=O)O1	-	10 clinical isolates sensitive	-	MIC	-	4–16 µg/mL
CC(=O)C1=C(O)c2c(C)cc(C)nc2S(=O)(=O)N1C	-	H37Rv	-	EC50	-	>12.5 µg/mL
CCS1=C(C(C)=O)C(=O)OC(C)C1	-	H37Rv	-	MIC bound	BACTEC	>12.5 µg/mL
Cc1ccc(C(=S)CCC(=O)NC[C@H]2CN(c3ccc(N4CCOCC4)c(F)c3)C(=O)O2)cc1	-	10 clinical isolates sensitive	-	MIC	-	>16 µg/mL
CO[C@H]1/C=C/O[C@@]2(C)Oc3c(C)c(O)c4c(O)c(c(/C=N/N5CCN(C)CC5)c(O)c4c3C2=O)NC(=O)/C(C)=C\C=C\[C@H](C)[C@H](O)[C@@H](C)[C@@H](O)[C@@H](C)[C@H](OC(C)=O)[C@@H]1C	-	-	-	MIC	-	0.3 µg/mL
CCOC(=O)CN1C(C(C)=O)=C(O)c2c(C)cc(C)nc2S1(=O)=O	-	H37Rv	12.5 µg/mL	inhibition	-	31%
CN1Cc2cc(N3CCN(C(=O)c4cccc(Cl)c4)CC3)ccc2C1=O	-	Wild type without biotin	-	MIC90	turbidity	>50 µM
CC(=O)Nc1c(OC(C)=O)nc2ccc([N+](=O)[O-])cc2c1-c1ccccc1	-	H37Rv	-	EC50	-	>6.25 µg/mL
CC(=O)c1ccc(-c2cn(Cc3cccc(Cl)c3)nn2)s1	-	BioA overexpression strain	-	MIC50	turbidity	>50 µM
C[C@@H]1O[C@@H](Oc2c(-c3cc(O)c(O)c(O)c3)oc3cc(O)cc(O)c3c2=O)[C@H](O)[C@H](O)[C@H]1O	-	H37Rv	-	MIC	BACTEC	≥128 µg/mL
COC(=O)c1ccc2c(=O)c3ccccc3oc2c1	-	H37Rv	32 µg/mL	inhibition	-	inactive
O=C(Nc1ncc([N+](=O)[O-])s1)c1cccnc1	-	KM-R	-	MIC	-	12.5 µg/mL
CC(=O)Nc1c(C)c2ccccc2[nH]c1=O	-	H37Rv	6.25 µg/mL	inhibition	-	0%

11 of the rows above, restated:

SMILES,cells,strain,dose,measure,method,value
O=C(Nc1cccc(F)c1)c1ccccc1O,-,My 331/88,-,MIC,-,31 µM
CO[C@@]12[C@H](COC(N)=O)C3=C(C(=O)C(C)=C(N)C3=O)N1C[C@H]1[C@@H]2N1C(=O)/C=C/c1ccccc1,-,H37Rv,12.5 µg/mL,inhibition,BACTEC,99%
CC(=O)c1ccc(N2CCN(C(=O)c3cncc(Cl)c3)CC2)cc1,-,BioA overexpression strain,-,MIC50,turbidity,>50 µM
CO[C@H]1/C=C/O[C@@]2(C)Oc3c(C)c(O)c4c(O)c(c(N5CCN(Cc6c(C)cc(C)cc6C)CC5)c(O)c4c3C2=O)NC(=O)/C(C)=C\C=C\[C@H](C)[C@H](O)[C@@H](C)[C@@H](O)[C@@H](C)[C@H](OC(C)=O)[C@@H]1C,-,-,-,MIC,-,0.04 µg/mL
CC(=O)c1ccc(N2CCN(C(=O)c3cscn3)CC2)cc1,-,BioA overexpression strain,-,MIC50,turbidity,>50 µM
CC1=C2C(=CO[C@H](C)[C@H]2C)C(=O)C(C(=O)O)=C1O,-,49,10 µg/mL,inhibition,-,40%
Cc1ccc(NC(=O)c2ccccc2N)cc1C,-,My 331/88,-,MIC,-,>125 µM
Cc1ccc(NC(=O)CC/C(CC(=O)C(C)(C)C)=N\NC(=O)C[n+]2ccccc2)cc1C.[Cl-],-,H37Rv,12.5 µg/mL,inhibition,BACTEC,21%
COc1ccccc1NC(=O)C1=C(C)NC(C)=C(C(=O)Nc2ccccc2OC)C1c1ccc(Cl)cc1Cl,-,H37Rv,-,EC50,-,<2.5 µg/mL
CCCCCC(=O)NC1C(O)OC(CO)C(O)C1O,-,H37Rv,12.5 µg/mL,inhibition,BACTEC,6%
NC(=O)c1cnccn1,-,TB186,-,MIC,-,3200 µg/mL